{"source": "patent US12233083B2", "about": "“Methods for the use of 5′-adenosine diphosphate ribose (ADPR)” (Invirsa, Inc., priority 2018, dated 2025)", "test_system": "Herpes Simplex Virus Type 1 (HSV-1), Strain KOS", "test": "Plaque inhibition assay against HSV-1 strain KOS on Vero cells", "format": "cell-based", "details": "3 mg/ml", "note": "Only a part of the results on these compounds is given; other tests are left out.", "data": [{"substance": "Adenosine 5′-diphosphoribose Sodium Salt", "values": [{"measurement": "effect on HSV-1 plaque number and plaque size", "result": "inhibition of plaque number and plaque size"}]}]}
